Article PMC4518248, “A potent broad-spectrum protective human monoclonal antibody crosslinking two haemagglutinin monomers of influenza A virus” (2015)

Molecular target: recombinant H7 HA ectodomain of A/Anhui/1/2013 (H7N9) (influenza A virus A/Anhui/1/2013 (H7N9))
Assay: crystal structure; […]

“recombinant H7 HA ectodomain of A/Anhui/1/2013 (H7N9) (domain or fragment)” was tested, and the stoichiometry N was 3.
